In data set [1] the test system is CT-26-derived tumor allografts. The data set is described as follows: CT-26 allograft mouse model. The format is in vivo, BALB/c mice. The settings on record: 5 mg/kg bw/day i.p., complete study period. The method, then: For the allograft experiment, 4 × 10^5 CT-26 cells were resuspended in 50 µL RPMI medium and injected subcutaneously into the right flank of eight, 6–8 weeks old, male BALB/c mice that were obtained from Harlan Laboratories (San Pietro al Natisone, Italy). Likewise, in the xenograft experiment, 1 × 10^6 KB-3-1 cells in 50 µL RPMI medium were injected subcutaneously into the right flank of eight, 6–8 weeks old, male CB-17/IcrHanHsd-Prkdc severe combined immunodeficiency (SCID) mice. Of each group, four animals were randomly assigned to the control or to the treatment group. […] Effects of the treatment were assessed by daily recording of tumor size with a microcaliper and parameters indicating the animals’ overall health condition (e.g., body weight, fatigue, grooming, ragged coat, food and fluid consumption). Tumor volumes (mm^3) were calculated using the formula: (length × width^2)/2. […]
From each mouse from both the control (n = 4) and the treatment group (n = 4), tissue samples were formalin-fixed, paraffin-embedded and used to prepare serial 3 µm sections. […] Numbers of the three cell fractions were analyzed in a blinded setup in at least four images of H/E-stained tumor sections, taken under a 40 × objective microscope lens. […]

Data set [2] in a line: Beauvericin distribution by LC-MS/MS, allograft model. The format is in vivo, BALB/c mice.
Data set [3] is described as follows: Beauvericin distribution by LC-MS/MS, xenograft model. The format is in vivo, CB-17/SCID mice.
[4] abbreviates: 5 mg/kg bw/day i.p., 9 days of treatment.

Regarding beauvericin, the “Mean body weight of mice” value in data set [1] was “virtually unaltered”. Besides, in data set [2] (setting [4]), the “Beauvericin level in feces” value is reported as 698.1 ± 257.2 µg/kg, the “Beauvericin level in kidney” value worked out at 312.8 ± 104.6 µg/kg and the “Beauvericin level in liver” value is 266.5 ± 91.1 µg/kg. Besides, in data set [2] (allograft model), the “Accumulation in kidney compared to serum” value was 8.8 fold, the “Accumulation in liver compared to serum” value was determined as 7.5 fold and the “Accumulation in tumors compared to serum” value was 2.3 fold. Further, in data set [3] (setting [4]), the “Beauvericin level in colon” value is listed as 217.2 ± 104.0 µg/kg, the “Beauvericin level in liver” value is 440.9 ± 165.9 µg/kg and the “Beauvericin level in serum” value came out at 55.7 ± 23.4 µg/kg. Besides, in data set [3] (xenograft model), the “Accumulation in adipose tissue compared to serum” value amounted to 46.7 fold, the “Enrichment in feces compared to serum” value was 16.4 fold, the “Enrichment in kidney compared to serum” value is on record as 5.5 fold and the “Enrichment in liver compared to serum” value came to 7.9 fold.

The values are drawn from publication PMC5618191, “The Natural Fungal Metabolite Beauvericin Exerts Anticancer Activity In Vivo: A Pre-Clinical Pilot Study” (Toxins, 2017).
